No end group written: not given here.
Biological target: human voltage-gated sodium channel Nav1.7 (human), Q15858
Assay: cell-based or functional assay

| Binder | Nav1.7/Nav1.3 (ratio of IWQ IC50 on Nav1.7 to that on Nav1.3) [fold] |
| --- | --- |
| DCLGAFRKCIPDLDKCCRPNLVCSRTHRWCKYVF-OH (ends and bridges not checked) [[Ala5;Phe6;Leu13;Arg28]GpTx-1(1-34)-FreeAcid] | 1 |
| DCLGAFRKCIPDPDKCCRPNLVCSRTHRWCKYVF-OH (ends and bridges not checked) [[Ala5;Phe6;Pro13;Arg28]GpTx-1(1-34)-FreeAcid] | 1 |
| DCLGAFRKCIPDRDKCCRPNLVCSRTHRWCKYVF-OH (ends and bridges not checked) [[Ala5;Phe6;Arg13,28]GpTx-1(1-34)-FreeAcid] | 7.1 |
| DCLGAFRKCIPDMDKCCRPNLVCSRTHRWCKYVF-OH (ends and bridges not checked) [[Ala5;Phe6;Met13;Arg28]GpTx-1(1-34)-FreeAcid] | 5.8 |
| DCLGAFRKCIPDKDKCCRPNLVCSRTHRWCKYVF-OH (ends and bridges not checked) [[Ala5;Phe6;Lys13;Arg28]GpTx-1(1-34)-FreeAcid] | 11.8 |

Source: patent US20160304570A1, “Potent and selective inhibitors of nav1.3 and nav1.7” (published 2016)
